Taken from: PubChem BioAssay AID1259414 (Drosophila RNAi Screening Center, 2018)

Purpose: 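Fly genes that alter Wolbachia amount inside host cells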 (primary screen)
Cells: Drosophila JW18 cells infected with Wolbachia
Reagent: long dsRNA against Drosophila genes, 0.25 µg dsRNA per well of a 384-well plate
Duration: 5 days
Challenge: cells persistently infected with Wolbachia before knock-down; no added drug
Measured: 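Imaged fluorescence in situ signal for Wolbachia 23S rRNA per DAPI-counted host cell, given as a robust z-score within each plate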
Direction: Wolbachia per cell robust z: higher = more Wolbachia per host cell than the plate typical
Hit rule: 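Hit when robust z is 1.5 or more, or -1.5 or less, in at least two of three replicates; excludes dsRNAs with several or no targets, genes not expressed in JW18 and well A1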
The deposit covers about 24,000 reagents; shown is an unselected part of those that have a named target and a result. Over the whole deposit, about 1,210 (5%) were called active. 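Inactive calls also include excluded dsRNAs with several or no targets, genes unexpressed in JW18, and well A1, regardless of score.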 The numbers tell different reagents against one gene apart. Names joined by + are all predicted targets of the reagent.

target,dsRNA no.,"Wolbachia per cell robust z, rep 1","Wolbachia per cell robust z, rep 2","Wolbachia per cell robust z, rep 3",call
CG4951,1,-0.673,-0.633,0.26,inactive
CG30059 + CG18278,1,0.195,-8.64,0.877,inactive
Nepl10 (Neprilysin-like 10),1,-0.819,-1.89,-0.622,inactive
"Smyd4-2 (SET and MYND domain containing, class 4, member 2)",1,-4.05,-5.21,-7.03,inactive
"Smyd4-2 (SET and MYND domain containing, class 4, member 2)",2,-0.702,-0.316,-0.708,inactive
Acp53Ea (Accessory gland protein 53Ea),1,0.148,1.05,0.123,inactive
casp (caspar),1,0.593,-0.092,0.00177,inactive
CG4438,1,-0.243,-3.49,0.548,inactive
CG4438,2,-1.01,0.69,-3.53,inactive
fest (wurstfest),1,0.87,1.39,-0.269,inactive
fest (wurstfest),2,-0.229,-0.909,-1.85,inactive
Or45b (Odorant receptor 45b),1,-0.473,0.521,-0.381,inactive
Ipk2 (Inositol phosphate kinase 2),1,0.0426,-1.1,-0.816,inactive
Ipk2 (Inositol phosphate kinase 2),2,-0.675,-0.43,-0.483,inactive
CG1946,1,0.213,0.711,0.0997,inactive
CG1946,2,-0.805,-0.127,0.811,inactive
Cby (Chibby),1,-0.184,0.276,-0.318,inactive
sunz (sungrazer),1,-5.27,-1.01,-7.14,inactive
Scgbeta (Sarcoglycan beta),1,-0.443,-2.12,-0.439,inactive
CG4553,1,-3.83,0.207,0.161,inactive
CG4553,2,-0.494,0.161,0.112,inactive
Drgx (Dorsal root ganglia homeobox),1,-0.747,-6.72,-0.638,inactive
Drgx (Dorsal root ganglia homeobox),2,-0.0457,-4.77,0.694,inactive
Drgx (Dorsal root ganglia homeobox),3,0.13,-0.327,-0.269,inactive
ACXC (Adenylyl cyclase X C),1,-0.0211,-0.162,-0.818,inactive
CG16837,1,-0.234,-1.12,0.396,inactive
CG16837,2,-1.52,-0.644,-0.794,inactive
CG17219,1,-0.258,0.605,-0.679,inactive
CG6660,1,0.684,-2.29,0.301,inactive
Cdc16 (Cell division cycle 16),1,0.279,0.178,-0.0124,inactive
mt:ATPase6 (mitochondrial ATPase subunit 6),1,-0.157,-0.327,-0.702,inactive
CG15198,1,-0.276,-2.33,-1.26,inactive
spn-E (spindle E),1,0.572,0.419,1.26,inactive
spn-E (spindle E),2,-0.542,-0.0543,-1.76,inactive
CG12279,1,0.0635,-3.63,-0.0377,inactive
vig2,1,1.16,0.23,0.905,inactive
vig2,2,-5.99,0.00591,-0.0207,inactive
tal-2A + tal-AA + tal-3A + 1 more,1,0.999,0.785,0.706,inactive
CG33307,1,-0.206,-1.19,0.0232,inactive
CG13801,1,-0.223,-0.0788,-0.29,inactive
CG14644,1,0.175,0.441,-1.4,inactive
Eig71Ea (Ecdysone-induced gene 71Ea),1,1.03,0.676,-0.0649,inactive
Phm (Peptidylglycine-alpha-hydroxylating monooxygenase),1,-4.28,1.42,-3.48,inactive
CG12645,1,0.857,0.52,0.295,inactive
CG12645,2,-0.111,-1.08,-0.0316,inactive
Gss1 + Gss2,1,0.98,-0.698,0.146,inactive
CG2641,1,-0.0938,-1.09,-2.39,inactive
CG34283,1,-1.08,-0.00761,0.0834,inactive
sff (sugar-free frosting),1,-1.18,0.332,-0.472,inactive
CG17744,1,-0.137,0.991,0.577,inactive
Lrpprc2 (Leucine-rich pentatricopeptide repeat containing 2),1,0.511,-0.0897,-2.14,inactive
Lrpprc2 (Leucine-rich pentatricopeptide repeat containing 2),2,-0.872,1.1,0.331,inactive
rsh (radish),1,-1.05,0.465,-0.949,inactive
rsh (radish),2,-0.602,-2.04,-1.7,inactive
rsh (radish),3,-0.191,0.824,-0.165,inactive
CG31804,1,1.13,-1.35,0.888,inactive
Acox57D-d (acyl-Coenzyme A oxidase at 57D distal),1,-0.195,-4.72,0.353,inactive
Acox57D-d (acyl-Coenzyme A oxidase at 57D distal),2,-0.49,-1.19,-0.359,inactive
S-Lap2 (Sperm-Leucylaminopeptidase 2),1,-0.869,0.661,0.49,inactive
CG7304,1,-0.137,-0.099,-0.276,inactive
CG7304,2,-0.0441,0.437,0.449,inactive
Cdc6 (Cell division cycle 6),1,-0.294,0.516,1.24,inactive
CR40354 (pseudo),1,0.358,-5.19,-0.0141,inactive
Tcs5 (Threonyl-carbamoyl synthesis 5),1,-0.00871,-0.75,-1.79,inactive
dmt (dalmatian),1,0.813,0.932,1.85,inactive
mt:CoII (mitochondrial Cytochrome c oxidase subunit II),1,0.676,1.49,-1.95,inactive
CG34012,1,-1.4,-0.791,-1.67,inactive
CG18011,1,0.938,0.602,-2.06,inactive
CG18011,2,-0.278,0.669,0.452,inactive
CG34445,1,1.08,0.0116,-0.329,inactive
CG34445,2,-0.484,0.553,-1.81,inactive
tHMG1 (testis-enriched HMG-box-containing protein 1),1,-0.517,-1.1,-1.33,inactive
djl (don juan like),1,2.23,0.226,-0.661,inactive
djl (don juan like),2,1.09,-1.5,-1.23,inactive
CG30065,1,-0.316,0.512,0.289,inactive
Ptpa (Phosphotyrosyl phosphatase activator),1,-1.01,-0.0959,-0.541,inactive
Ptpa (Phosphotyrosyl phosphatase activator),2,-0.14,-0.00617,0.0705,inactive
Ptpa (Phosphotyrosyl phosphatase activator),3,-1.22,0.688,-0.104,inactive
CG12828,1,-1.87,-0.152,1.18,inactive
sws (swiss cheese),1,-0.139,0.775,0.196,inactive
hyx (hyrax),1,0.691,0.905,-2.23,inactive
csul (capsuleen),1,-1.01,-1.09,-2.37,inactive
ZnT63C (Zinc transporter 63C),1,-0.0833,-0.225,-0.341,inactive
ZnT63C (Zinc transporter 63C),2,-0.444,0.276,-0.509,inactive
ZnT63C (Zinc transporter 63C),3,-2.5,-1.42,0.158,inactive
ZnT63C (Zinc transporter 63C),4,0.525,-0.221,-0.623,inactive
ZnT63C (Zinc transporter 63C),5,-0.604,0.409,0.0465,inactive
